A mixed list of measured activities; the numbers were collected in NIAID ChemDB.

Common to all: enzyme or target tests

ICn is the concentration giving n% inhibition. Inhibition is in % at the dose shown (toxicity tests: loss of growth or viability). Conditions beyond the fields shown may differ between rows.

Cc1cc(=O)n([C@@H]2O[C@H](C)C3CNC(=S)OC32)c(=O)[nH]1 ; organism: Mycobacterium tuberculosis ; protein: Thymidine monophosphate kinase ; read-out: Ki ; result: 2.3 µM
O=C(Nc1ccccc1)N1CCc2c(c(-c3ccccc3)nn2Cc2cn(-c3ccc4c(c3)OCO4)nn2)C1 ; organism: Mycobacterium tuberculosis ; protein: Pantothenate synthetase ; read by: absorbance ; read-out: IC50 ; result: 8.39 µM
NS(=O)(=O)OC1[C@H](O)[C@H](O)C(O)[C@H](O)[C@H]1O ; organism: Mycobacterium bovis ; protein: Phosphatidylinositol phosphate synthase ; read-out: inhibition ; dose: 1000 µM ; result: 16%
Cn1c(=O)sn(-c2ccccc2)c1=O ; organism: Mycobacterium tuberculosis ; strain or isolate: H37Rv ; protein: Alanine racemase ; read by: HPLC ; read-out: IC50 ; result: 0.29 µM
CCn1cc(C(=O)Nc2cc(/C(C)=N\N=C(N)N)cc(/C(C)=N/N=C(N)N)c2)c(=O)c2ccc(C)nc21 ; organism: Mycobacterium tuberculosis ; protein: Protein kinase B ; read by: kinase activity / radiometric ; read-out: IC50 ; result: 0.621 µM
CCC(CC)(P(=O)(O)O)P(=O)(O)CC/C=C(\C)CCC=C(C)C ; organism: Mycobacterium tuberculosis ; strain or isolate: H37Rv ; protein: Z-farnesyl diphosphate synthase ; read-out: IC50 ; result: 400 µM
COc1c(N2CCN(Cn3c(O)c(N=NC(=O)c4ccncc4)c4cc(Cl)ccc43)C(C)C2)c(F)cc2c(=O)c(C(=O)O)cn(C3CC3)c12 ; organism: Mycobacterium tuberculosis ; protein: Gyrase ; read-out: IC50 ; result: 5 µM
C=CC/C=C(\C)c1ccc(C2=N/C(=C\c3ccc(CCCCC=C)[nH]3)C(OC)=C2)[nH]1 ; organism: Mycobacterium tuberculosis ; protein: Protein tyrosine phosphatase A ; read-out: IC50 ; result: 28.7 µM
NNC(=O)c1ccncc1 ; organism: Mycobacterium tuberculosis ; strain or isolate: H37Rv ; protein: Citrate synthase ; read-out: inhibition ; dose: 1000 µM ; result: 0%
Cc1ccc(-n2cc(Cn3nc(-c4ccccc4)c4c3CCN(C(=O)Nc3ccccc3)C4)nn2)cc1C ; organism: Mycobacterium tuberculosis ; protein: Pantothenate synthetase ; read by: absorbance ; read-out: IC50 ; result: 6.91 µM
CO[C@H]1/C=C/O[C@@]2(C)Oc3c(C)c(O)c4c(=O)c(c5oc6cc(N7CCN(CC(C)C)CC7)cc(=O)c6nc5c4c3=C2O)NC(=O)/C(C)=C\C=C\[C@H](C)[C@H](O)[C@@H](C)[C@@H](O)[C@@H](C)[C@H](OC(C)=O)[C@@H]1C ; organism: Mycobacterium avium ; strain or isolate: N-265 ; protein: RNA polymerase ; read-out: IC50 ; result: 0.2 µg/mL
O=C(Nc1ccccc1)N1CCc2c(c(-c3ccccc3)nn2Cc2cn(-c3ccccc3I)nn2)C1 ; organism: Mycobacterium tuberculosis ; protein: Pantothenate synthetase ; read by: absorbance ; read-out: IC50 ; result: 3.92 µM
O=C1C=CC(O)(c2nc3ccccc3s2)C=C1 ; organism: Mycobacterium tuberculosis ; strain or isolate: H37Rv ; protein: Thioredoxin reductase ; read-out: IC50 ; result: 28 µM
Nc1ncnc2c1ncn2[C@@H]1O[C@H](COP(=O)(O)OP(=O)([O-])OC[C@H]2O[C@@H](N3C=CC4C(=C3)C(=O)NC4(O)c3ccncc3)[C@H](O)[C@@H]2O)[C@@H](O)[C@H]1OP(=O)(O)O ; organism: Mycobacterium tuberculosis ; protein: Dihydrofolate reductase ; read-out: Ki ; result: 0.001 µM
COC1(c2nc3ccc(F)cc3s2)C=CC(=NS(=O)(=O)c2ccc(C)cc2)C=C1 ; organism: Mycobacterium tuberculosis ; strain or isolate: H37Rv ; protein: Thioredoxin reductase ; read-out: IC50 ; result: >1000 µM
O=C(Nc1ccccc1)N1CCc2c(c(-c3ccccc3)nn2Cc2cn(-c3ccc(Cl)c(Cl)c3)nn2)C1 ; organism: Mycobacterium tuberculosis ; protein: Pantothenate synthetase ; read by: absorbance ; read-out: IC50 ; result: 0.91 µM
COc1c(N2CCN(Cn3c(O)c(N=NC(N)=O)c4cc(F)ccc43)C(C)C2)c(F)cc2c(=O)c(C(=O)O)cn(C3CC3)c12 ; organism: Mycobacterium tuberculosis ; protein: Gyrase ; read-out: IC50 ; result: 4 µM
Cc1cn([C@@H]2O[C@H](CO)[C@@H](CN=[N+]=[N-])[C@H]2O)c(=O)[nH]c1=O ; organism: Mycobacterium tuberculosis ; protein: Thymidine monophosphate kinase ; read-out: Ki ; result: >1000 µM
Cc1ccc(C)n1-c1cc(C(=O)O)cc(C(=O)O)c1 ; organism: Mycobacterium tuberculosis ; protein: Protein tyrosine phosphatase A ; read-out: Ki ; result: 34 µM
Cc1cn(C/C=C/CN2C(=O)c3cccc4cccc(c34)C2=O)c(=O)[nH]c1=O ; organism: Mycobacterium tuberculosis ; protein: Thymidine monophosphate kinase ; read by: absorbance ; read-out: Ki ; result: >100 µM
Cc1ccc(C)n1-c1ccc(C(=O)O)c(Cl)c1 ; organism: Mycobacterium tuberculosis ; protein: Protein tyrosine phosphatase A ; read-out: Ki ; result: 11 µM
Cc1cn(C/C=C\CN2Cc3cccc4cccc(c34)C2=O)c(=O)[nH]c1=O ; organism: Mycobacterium tuberculosis ; protein: Thymidine monophosphate kinase ; read by: absorbance ; read-out: Ki ; result: 1.4 µM
O=C(O)[C@]1(O)C=C(c2ccc3ccccc3c2)[C@@H](O)[C@H](O)C1 ; organism: Mycobacterium tuberculosis ; protein: Type II dehydroquinase ; read-out: IC50 ; result: 1.2 µM
COc1cc(C(=O)NS(=O)(=O)c2ccccc2C)ccc1Cc1cn(C)c2ccc(NC(=O)OC3CCCC3)cc12 ; organism: Mycobacterium tuberculosis ; protein: Lsr2 ; read by: binding ; read-out: IC50 ; result: 64.55 µM
C/C(=N/NC(=N)N)c1cc(NC(=O)c2ccc(C(=O)Nc3cc(/C(C)=N\NC(=N)N)cc(/C(C)=N/NC(=N)N)c3)s2)cc(/C(C)=N/NC(=N)N)c1 ; organism: Mycobacterium tuberculosis ; protein: Protein kinase B ; read by: kinase activity / radiometric ; read-out: IC50 ; result: 0.205 µM
Cc1ccc(C(F)(F)F)cc1CNCc1cc(C(=N)C(C)C)c(Nc2ccccc2)[nH]c1=O ; organism: Mycobacterium tuberculosis ; protein: Decaprenylphosphoryl-D-ribose oxidase ; read by: fluorescence ; read-out: IC50 ; result: <0.005 µM
CNc1cc(-c2[nH]c(C(C)(C)C)nc2-c2ccc3cc(OC)ccc3c2)ccn1 ; organism: Mycobacterium tuberculosis ; protein: MTB glutamine synthethase ; read-out: IC50 ; result: 5.2 µM
Cc1cn([C@@H]2C[C@H](O)[C@@H](CNC(=S)Nc3ccccc3)O2)c(=O)[nH]c1=S ; organism: Mycobacterium tuberculosis ; protein: TMPKmt ; read by: absorbance ; read-out: Ki ; result: 50 µM
O=C(O)[C@]1(O)C=C(c2ccc([N+](=O)[O-])cc2)[C@@H](O)[C@H](O)C1 ; organism: Mycobacterium tuberculosis ; protein: Type II dehydroquinase ; read-out: IC50 ; result: 6.5 µM
CC(=O)Nc1ccc(-n2c(C)ccc2C)c(C(=O)O)c1 ; organism: Mycobacterium tuberculosis ; protein: Protein tyrosine phosphatase A ; read-out: Ki ; result: 25 µM
C/C(=N/N=C(N)N)c1cc(NC(=O)C(F)(F)C(F)(F)C(F)(F)C(F)(F)C(F)(F)C(F)(F)C(F)(F)C(F)(F)C(=O)Nc2cc(/C(C)=N\N=C(N)N)cc(/C(C)=N\N=C(N)N)c2)cc(/C(C)=N\N=C(N)N)c1 ; organism: Mycobacterium tuberculosis ; protein: Protein kinase B ; read by: kinase activity / radiometric ; read-out: inhibition ; dose: 10 µM ; result: 97.6%
O=C(O)[C@]1(O)C=C(c2ccc3cc[nH]c3c2)[C@@H](O)[C@H](O)C1 ; organism: Mycobacterium tuberculosis ; protein: Type II dehydroquinase ; read-out: IC50 ; result: >300 µM
CC(=O)NC1=C2C=CC=C3C(=O)N(C/C=C\Cn4cc(C)c(=O)[nH]c4=O)C(C=C1)C32 ; organism: Mycobacterium tuberculosis ; protein: Thymidine monophosphate kinase ; read by: absorbance ; read-out: Ki ; result: 6 µM
Cc1cccc(Cl)c1-n1sc(=O)n(CC2CC2)c1=O ; organism: Mycobacterium smegmatis ; strain or isolate: mc2155 ; protein: Alanine racemase ; read by: HPLC ; read-out: IC50 ; result: >100 µM
O=C(O)[C@]1(O)C=C(c2ccc3ccoc3c2)[C@@H](O)[C@H](O)C1 ; organism: Mycobacterium tuberculosis ; protein: Type II dehydroquinase ; read-out: IC50 ; result: 0.97 µM
Cc1cc(=O)n([C@@H]2O[C@H](CO)C3CNC(=O)NC32)c(=O)[nH]1 ; organism: Mycobacterium tuberculosis ; protein: Thymidine monophosphate kinase ; read-out: Ki ; result: 59 µM
O=C1NC(=O)/C(=C2\CN(CC3CCCCC3)S(=O)(=O)c3ccccc32)S1 ; organism: Mycobacterium smegmatis ; protein: N-acetyltransferase ; read-out: IC50 ; result: >100 µM
O=C(Nc1ccccc1)N1CCc2c(c(-c3ccccc3)nn2Cc2cn(-c3ccc(Cl)cc3)nn2)C1 ; organism: Mycobacterium tuberculosis ; protein: Pantothenate synthetase ; read by: absorbance ; read-out: IC50 ; result: 6.36 µM
O=P(O)(O)CC1[C@H](O)[C@H](O)C(O)[C@H](O)[C@H]1O ; organism: Mycobacterium bovis ; protein: Phosphatidylinositol phosphate synthase ; read-out: inhibition ; dose: 1000 µM ; result: 0%
O=C(Nc1ccccc1)N1CCc2c(c(-c3ccccc3)nn2Cc2cn(-c3ccccc3Cl)nn2)C1 ; organism: Mycobacterium tuberculosis ; protein: Pantothenate synthetase ; read by: absorbance ; read-out: IC50 ; result: 2.78 µM
O=C1C=CC(O)(c2nccs2)C=C1 ; organism: Mycobacterium tuberculosis ; strain or isolate: H37Rv ; protein: Thioredoxin reductase ; read-out: IC50 ; result: 84 µM
CCOC(=O)c1cccc(-n2sc(=O)n(C3Cc4ccccc4C3)c2=O)c1 ; organism: Mycobacterium smegmatis ; strain or isolate: mc2155 ; protein: Alanine racemase ; read by: HPLC ; read-out: IC50 ; result: >100 µM
CCOP(=O)(CC1[C@H](O)[C@H](O)C(O)[C@H](O)[C@H]1O)OCC ; organism: Mycobacterium bovis ; protein: Phosphatidylinositol phosphate synthase ; read-out: inhibition ; dose: 1000 µM ; result: 11%
Cc1cn(C/C=C\CN2C(=O)C3=CC=CC4=C(N)C=CC2C34)c(=O)[nH]c1=O ; organism: Mycobacterium tuberculosis ; protein: Thymidine monophosphate kinase ; read by: absorbance ; read-out: Ki ; result: 2.4 µM
COc1c(N2CCN(Cn3c(O)c(N=NC(N)=S)c4cc(C)ccc43)C(C)C2)c(F)cc2c(=O)c(C(=O)O)cn(C3CC3)c12 ; organism: Mycobacterium tuberculosis ; protein: Gyrase ; read-out: IC50 ; result: 10 µM
O=C(Nc1ccccc1)N1CCc2c(c(-c3ccccc3)nn2Cc2cn(-c3ccc(I)cc3)nn2)C1 ; organism: Mycobacterium tuberculosis ; protein: Pantothenate synthetase ; read by: absorbance ; read-out: IC50 ; result: 1.04 µM
Cn1c(=O)sn(-c2cccc3ccccc23)c1=O ; organism: Mycobacterium smegmatis ; strain or isolate: mc2155 ; protein: Alanine racemase ; read by: HPLC ; read-out: IC50 ; result: 20.09 µM
CCCCCCCCCCCC[C@H]1OC(=O)[C@H](COCc2ccccc2)NC(=O)[C@H](C(C)O)NC(=O)[C@H](C(C)C)NC(=O)[C@@H]1C ; organism: Mycobacterium tuberculosis ; protein: Protein tyrosine phosphatase A ; read-out: IC50 ; result: >30 µM
O=c1sn(-c2ccc([N+](=O)[O-])cc2Cl)c(=O)n1C1Cc2ccccc2C1 ; organism: Mycobacterium tuberculosis ; strain or isolate: H37Rv ; protein: Alanine racemase ; read by: HPLC ; read-out: IC50 ; result: 0.05 µM
Cc1ccc(C)n1-c1ccc(C(=O)O)cc1O ; organism: Mycobacterium tuberculosis ; protein: Protein tyrosine phosphatase A ; read-out: Ki ; result: 18 µM
Cc1cn(C/C=C\CN2C(=O)c3cccc4cccc(c34)C2=O)c(=O)[nH]c1=O ; organism: Mycobacterium tuberculosis ; protein: Thymidine monophosphate kinase ; read by: absorbance ; read-out: Ki ; result: 1.9 µM
CC(C)c1ccc(-n2c(=O)sn(-c3ccc(SC(F)(F)F)cc3)c2=O)cc1 ; organism: Mycobacterium tuberculosis ; strain or isolate: H37Rv ; protein: Alanine racemase ; read by: HPLC ; read-out: IC50 ; result: 0.17 µM
O=C1C=CC(O)(c2cccc3ccccc23)C=C1 ; organism: Mycobacterium tuberculosis ; strain or isolate: H37Rv ; protein: Thioredoxin reductase ; read-out: IC50 ; result: 366 µM
COc1c(N2CCN(Cn3c(O)c(N=NC(N)=S)c4ccccc43)C(C)C2)c(F)cc2c(=O)c(C(=O)O)cn(C3CC3)c12 ; organism: Mycobacterium tuberculosis ; protein: Gyrase ; read-out: IC50 ; result: 5 µM
Cc1cc(=O)n([C@@H]2O[C@H](CO)C3CC(=S)OC32)c(=O)[nH]1 ; organism: Mycobacterium tuberculosis ; protein: Thymidine monophosphate kinase ; read-out: Ki ; result: 8 µM
COc1c(N2CCN(Cn3c(O)c(N=NC(N)=O)c4ccccc43)C(C)C2)c(F)cc2c(=O)c(C(=O)O)cn(C3CC3)c12 ; organism: Mycobacterium tuberculosis ; protein: Gyrase ; read-out: IC50 ; result: 3 µM
O=c1[nH]c(=O)n([C@H]2C[C@H](O)[C@@H](CCc3nn[nH]n3)O2)cc1CO ; organism: Mycobacterium tuberculosis ; protein: TMPKmt ; read by: binding / absorbance ; read-out: Ki ; result: >2400 µM